The text below walks through data of publication doi:10.1101/2022.06.18.496527.

Test [1] deals with OsExo70F3^Δ93 (rice). In words: ITC. The conditions noted are these: domain or fragment.
Test [2] addresses OsExo70F3^Δ93 (rice). In words: ITC. Conditions: domain or fragment. The source holds these as a separate data set.

With “AVR-Pii effector domain (residues 20 to 70), purified”, the Kd is 4.19 nM with OsExo70F3^Δ93 (rice) [1] and 2.79 nM in the test with OsExo70F3^Δ93 (rice) [2].
